# Results taken from patent US20190328860.
# Target: cholera toxin B subunit (CTB), Vibrio cholerae
substance,measurement,value
IsdB-CTA2 peptide of the IsdB-CTA2/B chimera,result,binds
